A mixed list of measured activities; the numbers were collected in NIAID ChemDB.

Common to all: tests in culture; agent: Mycobacterium tuberculosis

Inhibition is in % at the dose shown (toxicity tests: loss of growth or viability). ECn is the concentration giving n% inhibition of infection, replication or growth. Neighbouring rows are from separate reports. MIC50, MIC90 and the like: level of inhibition, or share of isolates inhibited. Blank or dashed fields: not listed here. MIC bound comes from a single tested concentration.

structure | strain or isolate | cells | read by | read-out | tested at | result
COC(=O)CCCCC(=O)Nc1cccc(I)c1 | H37Rv | - | - | MIC | - | >100 µg/mL
CO[C@H]1/C=C/O[C@@]2(C)Oc3c(C)c(O)c4c(O)c(c(/C=N/N5CCN(C/C=C/c6ccccc6)CC5)c(O)c4c3C2=O)NC(=O)/C(C)=C\C=C\[C@H](C)[C@H](O)[C@@H](C)[C@@H](O)[C@@H](C)[C@H](OC(C)=O)[C@@H]1C | MTB13 (INH-R) | - | - | MIC | - | ≤0.06 µg/mL
NNC(=O)c1ccncc1 | 90-0216 (drug-susceptible) | - | - | MIC | - | 0.04 µg/mL
CC1=C(Nc2ccccc2)C(=O)N(c2ccccc2)C1c1ccccc1 | H37Rv | - | BACTEC | MIC bound | - | >12.5 µg/mL
COc1cc(C2=NN(C(=O)COc3ccc4ccccc4c3)[C@H](Cc3ccccc3)C2)c(C)cc1OCC(=O)O | Isoniazid-resistant | - | - | MIC | - | >6.25 µg/mL
CC(C)=CCC/C(C)=C/CNCCNC1C2CC3CC(C2)CC1C3 | - | - | - | MIC | - | 6.25 µM
OC(CCl)CN1CCN(CC(O)CCl)CC1 | H37Rv | - | BACTEC | inhibition | 12.8 µg/mL | 21%
N[C@@H](C(=O)O)[C@@H](O)[C@H](O)[C@H](O)CO | H37Rv | - | - | MIC | - | >100 µg/mL
O=C1NC(NNC(=O)c2ccncc2)=N/C1=C\c1ccc(Cl)cc1 | Isoniazid-resistant | - | - | MBC | - | >100 µg/mL
CC1=N/C(=C/c2ccc([N+](=O)[O-])cc2)C(=O)N1n1c(-c2ccccc2)nc2ccccc2c1=O | H37Rv | - | BACTEC | MIC bound | - | ≤12.5 µg/mL
[Cl-].c1ccc(-c2ccccc2OCCOCC[n+]2ccccc2)cc1 | H37Rv | - | - | MIC | - | >100 µg/mL
CCN(CC)n1c(N)nc2c1c(=O)n(C)c(=O)n2C | H37Rv | - | BACTEC | inhibition | 12.5 µg/mL | 0%
CC1(C)[C@@H]2CC[C@H](CNCCNC[C@@H]3CC[C@H]4C[C@@H]3C4(C)C)[C@H]1C2 | - | - | - | MIC | - | 6.25 µM
Cc1cc(N=Nc2ccc(N(C)C)cc2)ccn1 | H37Rv | - | resazurin | inhibition | 6.25 µg/mL | 100%
CCn1cc(C(=O)O)c(=O)c2cc(F)c(N3CCN(CC(=O)c4ccc(C)cc4)CC3)cc21 | H37Rv | - | - | EC50 | - | >6.25 µg/mL
COc1cccc2c1C(=O)c1c(O)c3c(c(O)c1C2=O)C[C@@](O)(/C(C)=N/NC(=O)CO)CC3OC1CC(N)C(O)C(C)O1.Cl | EMB-R | - | - | MIC | - | >12.5 µg/mL
CCN(CC)c1ccc(Cc2ccc(N(CC)CC)cc2)cc1 | H37Rv | - | - | MIC | - | 50 µg/mL
CC12CCC(O)CC1CCC1C2CCC2(C)C(NC(=O)C3CCCN3C(=O)OCc3ccccc3)CCC12 | H37Rv | - | BACTEC | MIC bound | - | >12.5 µg/mL
Nc1cccc(O)c1Br | H37Rv | - | - | MIC | - | >100 µg/mL
C=CCn1c(-c2ccc(N=Nc3c(C)[nH]n(CCO)c3=O)cc2)n[nH]c1=S | H37Rv | - | - | inhibition | 12.5 µg/mL | 4%
O=C(NCc1ccc(N2CCN(Cc3ccccc3)CC2)cc1)c1ccc([N+](=O)[O-])o1 | UT26 | - | - | MIC | - | 0.012 µg/mL
N[C@@H]1CN(c2c(F)cc3c(=O)c(C(=O)O)cn([C@@H]4C[C@@H]4F)c3c2Cl)CC12CC2 | 23 strains (rifampin- isoniazid-susceptible) | - | - | MIC50 | - | 0.1 µg/mL
C=CCN(CCNCCc1ccccc1OC)C1CCCC1 | - | - | - | MIC | - | 25 µM
Nc1ccc(C(=O)c2ccc(N)cc2)cc1 | H37Rv | - | - | MIC | - | 25 µg/mL
CC[C@H]1OC(=O)[C@H](C)[C@@H](O[C@H]2C[C@@](C)(OC)[C@@H](O)[C@H](C)O2)[C@H](C)[C@@H](O[C@@H]2O[C@H](C)C[C@H](N(C)C)[C@H]2O)[C@](C)(OC)C[C@@H](C)C(=O)[C@H](C)[C@@H](O)[C@]1(C)O | 22 strains (rifampin- isoniazid-resistant) | - | - | MIC50 | - | 6.25 µg/mL
CO[C@H]1/C=C/O[C@@]2(C)Oc3c(C)c(O)c4c(O)c(c(/C=N/N5CCN(C)CC5)c(O)c4c3C2=O)NC(=O)/C(C)=C\C=C\[C@H](C)[C@H](O)[C@@H](C)[C@@H](O)[C@@H](C)[C@H](OC(C)=O)[C@@H]1C | 92-0492 MDR (INH RIF-resistant) | - | - | MIC | - | >32 µg/mL
C=CCn1c(-c2ccc(N=Nc3c(C)[nH]n(-c4ccccc4)c3=O)cc2)n[nH]c1=S | H37Rv | - | - | EC50 | - | >12.5 µg/mL
CCN(CC)c1ccc(NC(C)=O)cc1 | H37Rv | - | - | MIC | - | >100 µg/mL
CCn1cc(C(=O)O)c(=O)c2cc(F)c(N3CCN(C/C(=N/O)c4ccc(Br)cc4)CC3)cc21 | H37Rv | - | - | EC50 | - | >6.25 µg/mL
COc1ccc(CCNCCNCC23CC4CC(CC(C4)C2)C3)cc1OC | - | - | - | MIC | - | 6.25 µM
C[C@@H]1CN(c2c(F)c(N)c3c(=O)c(C(=O)O)cn(C4CC4)c3c2F)C[C@H](C)N1 | 90-0216 (drug-susceptible) | - | - | MIC | - | 0.2 µg/mL
Cn1c(=O)c(C(=O)[O-])c2c3c(cccc31)C(=O)c1ccccc1-2.[Na+] | H37Rv | - | - | MIC | - | 100 µg/mL
O=C1NC(NNC(=O)c2ccncc2)=N/C1=C\c1ccc(Cl)cc1Cl | H37Rv | - | resazurin | EC50 | - | >12.5 µg/mL
CC(=O)Nc1ccc(NC(C)=O)cc1 | H37Rv | - | - | MIC | - | >100 µg/mL
O=C1C=CC(=NC2=C(Cl)C(=O)c3ccccc3C2=O)C=C1 | H37Rv | - | BACTEC | MIC | - | >12.5 µg/mL
O=C(O)c1cn(C2CC2)c2cc(N3CCN(C/C(=N/O)c4ccc(Br)cc4)CC3)c(F)cc2c1=O | H37Rv | - | - | inhibition | 6.25 µg/mL | 87%
C#Cc1c(C)cc(C)c(CC(N)=O)c1C | H37Rv | - | - | MIC | - | 100 µg/mL
CC(CNCC(c1ccccc1)c1ccccc1)N[C@H]1C[C@H]2C[C@@H]([C@@H]1C)C2(C)C | - | - | - | MIC | - | 50 µM
O=S1c2ccccc2Oc2ccccc21 | H37Rv | - | - | MIC | - | 100 µg/mL
Cc1[nH]n(-c2ccccc2)c(=O)c1N=Nc1ccc(-c2n[nH]c(=O)n2-c2ccccc2)cc1 | H37Rv | - | - | inhibition | 12.5 µg/mL | 0%
C[C@@H]1CC[C@@]2(OC1)O[C@H]1[C@@H](O)[C@H]3[C@@H]4CC[C@H]5C[C@@H](O[C@@H]6O[C@H](CO)[C@H](O[C@@H]7O[C@H](CO)[C@@H](O)[C@H](O[C@@H]8OC[C@@H](O)[C@H](O)[C@H]8O)[C@H]7O[C@@H]7O[C@H](CO)[C@H](O)[C@H](O[C@@H]8O[C@H](CO)[C@@H](O)[C@H](O)[C@H]8O)[C@H]7O)[C@H](O)[C@H]6O)[C@H](O)C[C@]5(C)[C@H]4CC[C@]3(C)[C@H]1[C@@H]2C | H37Rv | - | BACTEC | MIC | - | ≥128 µg/mL
COc1ccccc1Oc1ccnc(N)n1 | H37Rv | - | - | MIC | - | >100 µg/mL
CC(C)=CCOc1c2ccoc2cc2oc(=O)ccc12.NNC(=O)c1ccncc1 | H37Rv | - | agar | MIC100 | - | 1.56 µg/mL
Cn1c2ccccc2c(=S)c2c(O)cc3c(c21)C=CC(C)(C)O3 | H37Rv | - | BACTEC | inhibition | 12.5 µg/mL | -30%
CC[C@H]1OC(=O)[C@H](C)[C@@H](O[C@H]2C[C@@](C)(OC)[C@@H](O)[C@H](C)O2)[C@H](C)[C@@H](O[C@@H]2O[C@H](C)C[C@H](N(C)C)[C@H]2O)[C@](C)(OC)C[C@@H](C)C(=O)[C@H](C)[C@@H](O)[C@]1(C)O | 90-0216 (drug-susceptible) | - | - | MIC | - | 5 µg/mL
COc1cccc(O)c1 | H37Rv | - | - | MIC | - | 50 µg/mL
O=C1NC(NNC(=O)c2ccncc2)=N/C1=C\c1ccccc1Cl | H37Rv | VERO | resazurin | MIC | - | 3.13 µg/mL
Cc1[nH][nH]c(=O)c1N=Nc1ccc(-c2n[nH]c(=S)o2)cc1 | H37Rv | - | - | EC50 | - | >12.5 µg/mL
C=C(CCCCCCCCC)CC(=O)SCCNC(=O)CCNC(=O)C(O)C(C)(C)COP(=O)(O)OP(=O)(O)OC[C@H]1O[C@@H](n2cnc3c(N)ncnc32)[C@H](O)[C@@H]1OP(=O)(O)O | H37Rv | - | resazurin | inhibition | 6.25 µg/mL | -24%
Cc1[nH][nH]c(=O)c1N=Nc1ccc(C(=O)N/N=C/c2ccc(F)cc2)cc1 | H37Rv | - | - | EC50 | - | >12.5 µg/mL
O=C1NC(Nc2cccc(Cl)c2)=N/C1=C\c1ccccc1Cl | H37Rv | - | - | EC50 | - | <12.5 µg/mL
CCOC(=O)C1CSC(CCCOCc2ccccc2)C1=O | H37Rv | - | - | MIC | - | >100 µg/mL
Nc1ncnc2c1ncn2[C@@H]1O[C@H](CO)[C@@H](NC(=O)C(N)CCC(=O)O)[C@@H]1O | H37Rv | - | resazurin | inhibition | 6.25 µg/mL | 1%
CC(=O)c1ccccc1C(=O)O | H37Rv | - | - | MIC | - | >100 µg/mL
CO[C@@H]1C[C@@H](C[C@H]2CC[C@H](C)[C@H]([C@@H](C)C(=O)O)O2)O[C@]2(O[C@](C)([C@H]3CC[C@@](C)([C@@H]4O[C@@H]([C@H]5O[C@@](O)(CO)[C@H](C)C[C@@H]5C)C[C@@H]4C)O3)C[C@H]2C)[C@@H]1C | KM-R | - | - | MIC | - | 1.6 µg/mL
S=C=Nc1cccc2ccccc12 | H37Rv | - | - | MIC | - | >100 µg/mL
O=C(O)c1ccc2c3c(ncnc13)-c1ccccc1C2=O | H37Rv | - | BACTEC | MIC bound | - | ≤128 µg/mL
O=C(NCc1ccc(N2CCN(Cc3ccccc3)CC2)nc1)c1ccc([N+](=O)[O-])o1 | HN878 | - | - | MIC | - | 0.05 µg/mL
CCCCCc1cc(/C=C2/N=C(c3ccc[nH]3)C=C2OC)[nH]c1C | H37Rv | - | BACTEC | inhibition | 128 µg/mL | 100%
CC(C)c1ccc2c(c1)CC[C@H]1[C@](C)(CNCCN[C@H](CO)Cc3ccc(Cl)cc3)CCC[C@]21C | - | - | - | MIC | - | 25 µM
COc1ccc2c(c1)[n+]([O-])c(/C(C)=N/NC(=O)c1ccccc1O)c(C)[n+]2[O-] | H37Rv | VERO | - | MIC | - | 6.25 µg/mL
COc1c(N2CCNC(C)C2)c(F)cc2c(=O)c(C(=O)O)cn(C3CC3)c12 | 27 strains (levofloxacin-susceptible) | - | - | MIC50 | - | 0.1 µg/mL
CN(C)c1ccc(C(O)c2ccc(N(C)C)cc2)cc1 | H37Rv | - | - | MIC | - | 100 µg/mL
O=C(O)c1c2ccc(=O)cc-2oc2cc(O)ccc12 | H37Rv | - | BACTEC | inhibition | 12.5 µg/mL | 5%
N=C(N)SCc1cccc2ccccc12 | H37Rv | - | - | MIC | - | >100 µg/mL
C=C[C@@]1(C)CC(=O)[C@]2(O)[C@@]3(C)[C@@H](O)CCC(C)(C)[C@@H]3[C@H](O)[C@H](OC(C)=O)[C@@]2(C)O1 | H37Rv | - | BACTEC | MIC bound | - | >12.5 µg/mL
CC(C)(CO)NCCNCCN1CCOCC1 | - | - | - | MIC | - | 50 µM
CC(=O)Nc1ccc(I)cc1I | H37Rv | - | - | MIC | - | 50 µg/mL
O=C(c1ccc([N+](=O)[O-])o1)N1CCc2cc(N3CCN(Cc4ccccc4)CC3)ccc2C1 | UT29 | - | - | MIC | - | 0.024 µg/mL
CC1COc2c(N3CCN(C)CC3)c(F)cc3c(=O)c(C(=O)O)cn1c23 | 90-0201 (drug-susceptible) | - | - | MIC | - | 0.5 µg/mL
CCOc1nc(=O)n([C@@H]2O[C@H](CO)[C@@H](O)[C@H]2O)s1 | H37Rv | - | BACTEC | MIC bound | - | >12.5 µg/mL
NCC[C@H](O)C(=O)N[C@@H]1C[C@H](N)[C@@H](O[C@H]2O[C@H](CN)[C@@H](O)[C@H](O)[C@H]2O)[C@H](O)[C@H]1O[C@H]1O[C@H](CO)[C@@H](O)[C@H](N)[C@H]1O | 92-0492 MDR (INH RIF-resistant) | - | - | MIC | - | 1 µg/mL
CC(CNCCc1ccccc1F)NC1CCCCCCC1 | - | - | - | MIC | - | 50 µM
NC(=O)c1cnccn1 | Isolate K10436 | - | - | MIC | - | >100 µg/mL
COc1ccc(C(=O)CN2CCN(c3cc4c(cc3F)c(=O)c(C(=O)O)cn4C3CC3)CC2)cc1 | H37Rv | - | - | EC50 | - | >6.25 µg/mL
Nc1nc(Cl)cc(NCCCCCCCCCCCCNc2cc(Cl)nc(N)n2)n1 | H37Rv | VERO | - | MIC | - | 12.5 µg/mL
COc1cc(C(=O)O)cc(C)c1Br | H37Rv | - | - | MIC | - | >100 µg/mL

For reference, 4 entries again:

structure | strain or isolate | cells | read by | read-out | tested at | result
Cc1cc(N=Nc2ccc(N(C)C)cc2)ccn1 | H37Rv | - | resazurin | inhibition | 6.25 µg/mL | 100%
CC(C)(CO)NCCNCCN1CCOCC1 | - | - | - | MIC | - | 50 µM
C[C@@H]1CC[C@@]2(OC1)O[C@H]1[C@@H](O)[C@H]3[C@@H]4CC[C@H]5C[C@@H](O[C@@H]6O[C@H](CO)[C@H](O[C@@H]7O[C@H](CO)[C@@H](O)[C@H](O[C@@H]8OC[C@@H](O)[C@H](O)[C@H]8O)[C@H]7O[C@@H]7O[C@H](CO)[C@H](O)[C@H](O[C@@H]8O[C@H](CO)[C@@H](O)[C@H](O)[C@H]8O)[C@H]7O)[C@H](O)[C@H]6O)[C@H](O)C[C@]5(C)[C@H]4CC[C@]3(C)[C@H]1[C@@H]2C | H37Rv | - | BACTEC | MIC | - | ≥128 µg/mL
CCn1cc(C(=O)O)c(=O)c2cc(F)c(N3CCN(CC(=O)c4ccc(C)cc4)CC3)cc21 | H37Rv | - | - | EC50 | - | >6.25 µg/mL